Experimental data: patent US20230348573A1 (KEIO UNIVERSITY, published 2023)

Key:
Experiment in all cases: ACE2 competition, spike on 293T cells, antibody 4 µg/mL
[1] = target: T1, full-length spike protein of SARS-CoV-2 α strain (SARS-CoV-2 (α strain))
T1 construct: whole, on cells; Expressed in 293T cells

[2] = target: T2, full-length spike protein of SARS-CoV-2 β strain (SARS-CoV-2 (β strain))
T2 construct: whole, on cells; Expressed in 293T cells

[3] = target: T3, full-length spike protein of SARS-CoV-2 γ strain (SARS-CoV-2 (γ strain))
T3 construct: whole, on cells; Expressed in 293T cells

B1: Ab302 (antibody, V domains shown)
VH: EVQLVESGGGLVQPGGSLRLSCAASGVIVSRNYMTWVRQAPGKGLEWVSVIYSGGSTFYADSVKGRFTISRDNSKNTLYLQMNSLRAEDTAVYYCARDRGEDVFDIWGQGTMVTVSS
VL: DIQLTQSPSSLSASVGDRVTITCRASQGISSYLAWYQQKPGKAPKLLIYAASTLQSGVPSRFSGSGSGTDFTLTISSLQPEDFATYYCQQLNSYPGYTFGQGTKLEIK
binding amount (%) of ACE2 protein [1]: 9.2% | binding amount (%) of ACE2 protein [2]: 92.6% | binding amount (%) of ACE2 protein [3]: 84.6%

B2: Ab176 (antibody, V domains shown)
VH: EVQLVESGGGLVQPGGSLRLSCAASGFTFSSYSMNWVRQAPGKGLEWVSYISGSSSTIYYADSVKGRFTISRDNAKNSLYLQMNSLRAEDTAVYYCVSSEWLLPRFFDYWGQGTLVTVSS
VL: QPVLTQEASVSGTVGQKVTLSCTGNRNNIGSYPVGWYQQISHGAPKTVMFGNSPPSGIPDRFFGSRSGTTASLTISGLQPEDEADYYCSTWDYSLSAVVFGGGTKLTVL
binding amount (%) of ACE2 protein [1]: 10.8% | binding amount (%) of ACE2 protein [2]: 18.6%

B3: Ab114 (antibody, V domains shown)
VH: EVQLVESGGGLIQPGGSLRLSCAASGFTVSSNYMNWVRQAPGKGLEWVSVIYSGGSTFYADSVKGRFTISRDNSKNTLYLQMNSLRVEDTAVYYCARDLDTQGGMDVWGQGTTVTVSS
VL: EIVLTQSPGSLSLSPGERATLSCRASQGVSSSYLAWYQHKPGQAPRLLIFGASTRATGIPDRFSGSGSGTDFTLTISRLEPEDFAVYYCQLYGSSPGTFGQGTKLEIK
binding amount (%) of ACE2 protein [1]: 4.4% | binding amount (%) of ACE2 protein [2]: 7.1%

B4: Ab709TK (antibody, V domains shown)
VH: QVQLVESGGGVVQPGKSLRLSCAASGFTFSSYAMHWVRLAPGKGLEWVAVISPDGKNKYYVDSVKGRSTISRDNSKNTLYLLMNSLRAEDTAVYYCATTQSLWFGQFYYIYGMDVWGQGTTVTVSS
VL: QSVLTQPHSVSESPGKTITISCTGSSGSIASNYVQWYQQRPGSAPTTVIYEDTERPSGVPDRFSGSIDSSSNSASLTISGLKTEDEADYYCQSYDSNNVVFGGGTKLTVL
binding amount (%) of ACE2 protein [1]: 0.6% | binding amount (%) of ACE2 protein [2]: 1.8% | binding amount (%) of ACE2 protein [3]: 2.4%

B5: Ab712 (antibody, V domains shown)
VH: QVQLVQSGSELKKPGASVKISCKASGYTFINHAINWVRQAPGQGLEWMGWINTNTGNPTYAPGFTGRFVFSLDTSVSTAYLQISSLKAEDTAVYYCARIPIRDYDYDGSGYYYFLDYWGQGTLVTVSS
VL: SYELTQDPAVSVALGQTVRITCQGDSLRSSSASWYQQKPGQAPVLVIYGKTNRPSGIPDRFSGSSSGNTASLTITGAQAEDEADYYCNSRDNSGNHPVVFGGGTKLTVL
binding amount (%) of ACE2 protein [1]: 4.4% | binding amount (%) of ACE2 protein [2]: 3.8% | binding amount (%) of ACE2 protein [3]: 8.1%

B6: Ab765 (antibody, V domains shown)
VH: QVQLVESGGGVVQPGRSLRLSCAASGFTFSDYAIHWVRQAPGRGLEPVALISYDGNNKYYADSVKGRFTISRDNSKNVLYLQMNSLRADDTAVYYCARDAEGGWVAALDYWGQGTLVTVSS
VL: QSALTQPRSVSGSPGQSVTISCTGTSSDVGGYNYVSWYQHHPGKAPKVMIYEVSKRPSGVPDRFSGSKSGTTASLTISGLQAEDEADYYCCSYAGTYPYVFGTGTKVTVL
binding amount (%) of ACE2 protein [1]: 2.6% | binding amount (%) of ACE2 protein [2]: 1.9% | binding amount (%) of ACE2 protein [3]: 3.3%

B7: Ab803 (antibody, V domains shown)
VH: EVQLVESGGGLVQPGRSLRVSCAASGFTFDDYAMHWVRQTPRKGLEWVAGISRNSAAIAYADSVKGRFTISRDNAKNSVFLQMNGLRADDTALYYCVKSPRYGWGSPDYSFDFWGRGTLVTVSS
VL: DIQLTQSPSSLSASVGDRVTITCRASQNIGTYLNWYQQEPGKAPKLLIYAASSLQSGVPSRFSGSGSGTDFTLTISSLQPEDFATYCCQQSFTTPLTFGQGTKVEIK
binding amount (%) of ACE2 protein [1]: 0.9% | binding amount (%) of ACE2 protein [2]: 1.4% | binding amount (%) of ACE2 protein [3]: 1.8%

B8: Ab287 (antibody, V domains shown)
VH: QVQLVQSGAEVKKPGSSVKVSCKASGDTFSSYAISWVRQAPGQGLEWMGRIILIFGVANYAQKFQGRVTITADKSTSTAYMELSSLRSEDTAVYYCARGGFYYDSSGYHLDYWGQGTLVTVSS
VL: EIVLTQSPGTLSLSPGERATLSCRPSQSVSSSYLAWYQQRPGQAPRLLIYGASSRATGIPDRFSGSGSGTDFTLTISRLEPEDFAVYYCHQYGSSPRTFGQGTKVEIK
binding amount (%) of ACE2 protein [2]: 128% | binding amount (%) of ACE2 protein [3]: 109%

B9: Ab326 (antibody, V domains shown)
VH: EVQLVESGGGVVQPGRSLRLSCAASGFTFSHYPMHWVRQAPGRGLEWVAVISYDGSNQHYVDSVKGRFTISRDNSKNTLYLQMNSLRAEDTAVYFCASLITMIRGVPDYWGQGTLVTVSS
VL: DIQMTQSPSSLSASVGDRVTITCRASQSISNYLNWYQQKPGKAPNLLIFAASSLQSGVPSRFSGSGSGTEFTLTISSLQPEDFAAYYCLQTYSTPRTFGQGTRLEIK
binding amount (%) of ACE2 protein [2]: 79.1% | binding amount (%) of ACE2 protein [3]: 90.9%

B10: Ab354 (antibody, V domains shown)
VH: QVQLVQSGAEVKKPGASVTVSCKASGFLFTGYYMHWVRQAPGQGLEWMGWINPNSGASNYTRKFQGRVTMTRDTSISATYMKLSRLTSDDTAVYYCARDLAFSMVRGALDYWGQGTLVTVSS
VL: QLVLTQPPSASGSPGQSVTISCTGTSSDVGGYNYVSWYQHHPGKAPKLMIYEVSKRPSGVPDRFSGSKSGNTASLTVSGLQAEDEADYYCNSYAGNNNWVFGTGTKVTVL
binding amount (%) of ACE2 protein [2]: 133%

B11: Ab496 (antibody, V domains shown)
VH: EVQLVQSGPEVKKPGTSVKVSCKASGFIFTNSAVQWVRQARGQRLEWIGWIVVGSGNPNYAQKFQERVTITRDRSTSTAYMELSSLTSEDTAVYYCAAFPYYYDNSGSGPWGQGTLVTVSS
VL: DIQLTQSPSSLSASVGDRVTITCQASQDIRNNLNWYQQIPGKAPKLLIYDASNLETGVPSRFSGSASGTDFTFTISSLQPEDVATYYCQQYANLPPFTFGPGTKVDIK
binding amount (%) of ACE2 protein [2]: 133%

B12: Ab336 (antibody, V domains shown)
VH: QVQLQQSGPGLVKPSETLSLTCTVSGGSISSYYWTWIRQPPGKGLEWIAYISYSGSTNYNPSLRSRVTISVDTSKNQFSLKLSSVTAADTAVYYCARDYYYDNSGYPDSYYGMDVWGQGTTVTVSS
VL: DIQLTQSPSTLSASVGDRVTITCRASQRISSWLAWYQQKPGKAPKLLIYKASTLQSGVPSRFSGSGSGTEFTLTISSLQPDDFATYYCQQYNSFSWTFGQGTKVEIK
binding amount (%) of ACE2 protein [1]: 4.2% | binding amount (%) of ACE2 protein [2]: 117%

B13: Ab445 (antibody, V domains shown)
VH: EVQLVESGGGVVQPGTSPRLSCAASGFTFSNSGMHWVRQAPGKGLEWVAVIWYDGSKKYYVDSVKGRFTISRDNSKNTLYLQMNSLRAEDTAVYYCARDGTVAVRGVMNPFFDYWGQGTLVTVSS
VL: DIQLTQSPSSLSASVGDRVTITCQASQDISNYLNWYQQIPGKAPKLLIYDASNLETGVPSRFSGSGSGTDFTFTISSLQPEDIATYYCQQYDNLPYTFGQGTKLEIK
binding amount (%) of ACE2 protein [1]: 118% | binding amount (%) of ACE2 protein [3]: 128%

B14: Ab188 (antibody, V domains shown)
VH: EVQLVESGGGLVQPGGSLRLSCAASGFTFINYKMNWVRQAPGKGLEWVSYISSGSDAIYYADSVKGRFTISRDNAKNSLYLQMNSLRDEDTALYYCARGGGYNYGECMDVWGQGTTVTVSS
VL: not shown
binding amount (%) of ACE2 protein [3]: 3.5%
